Target: T1, LongSpyTag-AP205-LongSpyTag (bacteriophage AP205)
T1 chain: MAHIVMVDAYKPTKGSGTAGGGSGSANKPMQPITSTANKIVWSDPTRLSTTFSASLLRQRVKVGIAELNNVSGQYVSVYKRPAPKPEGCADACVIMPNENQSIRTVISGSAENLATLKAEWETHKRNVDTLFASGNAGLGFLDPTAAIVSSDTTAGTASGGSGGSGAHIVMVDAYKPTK

B1: HIS-GMZ2ggsSpyCatcher (other)
chain: GSTSENRNKRIGGPKLRGNVTSNIKFPSDNKGKIIRGSNDKLNKNSEDVLEQSEKSLVSENVPSGLDIDDIPKESIFIQEDQEGQTHSELNPETSEHSKDLNNNGSKNESSDIISENNKSNKVQNHFESLSDLELLENSSQDNLDKDTISTEPFPNQKHKDLQQDLNDEPLEPFPTQIHKDYKEKNLINEEDSEPFPRQKHKKVDNHNEEKNVFHENGSANGNQGSLKLKSFDEHLKDEKIENEPLVHENLSIPNDPIEQILNQPEQETNIQEQLYNEKQNVEEKQNSQIPSLDLKEPTNEDILPNHNPLENIKQSESEINHVQDHALPKENIIDKLDNQKEHIDQSQHNINVLQENNINNHQLEPQEKPNIESFEPKNIDSEIILPENVETEEIIDDVPSPKHSNHETFEEETSESEHEEAVSEKNAHETVEHEETVSQESNPEKADNDGNVSQNSNNELNENEFVESEKSEHEARSKAKEASSYDYILGWEFGGGVPEHKKEENMLSHLYVSSKDKENISKENDDVLDEKEEEAEETEEEELEEKNEEETESEISEDEEEEEEEEEKEEENDKKKEQEKEQSNENNDQKKDMEAQNLISKNQNNNEKNVKEAAESIMKTLAGLIKGNNQIDSTLKDLVEELSKYFKNHGGSGAMVDTLSGLSSEQGQSGDMTIEEDSATHIKFSKRDEDGKELAGATMELRDSSGKTISTWISDGQVKDFYLYPGKYTFVETAAPDGYEVATAITFTVNEQGQVTVNGKATKGDAHI
notes: also called GMZ2: SpyC; A7
Question: Does B1 bind?
Answer: Result: binds

— patent US20200115420A1 (UNIVERSITY OF COPENHAGEN, published 2020)
